Assay results published in PubChem BioAssay AID1159524 (National Center for Advancing Translational Sciences (NCATS), 2015).
This is a selection; strong and weak results do not stand in their true shares. Results filed as inconclusive are left out. A call without a number means that no potency is given here. Activity calls are given as the source filed them. The call rests on the fitted dose curve; tested in HEK293T cells.
Potency means the concentration at half of the fitted maximal effect.

Test: High Throughput Screening for Foot and Mouth Disease Virus Antivirals; further: read-out not given here; nearly all actives have a fitted effect of over 45% in size
Conditions: FMDV antiviral cell-based qHTS; series mostly up to 57.9 µM
With CCOP(=O)(Nc1ccc(C)cn1)OCC the Potency was “inactive”. With CN(CCCl)Cc1cc(Cl)c(NC2=NCCN2)c(Cl)c1 the Potency was “inactive”. In the case of Nc1ccc(CCCCOc2ccccc2)cc1.O=[N+]([O-])c1cc([N+](=O)[O-])c(O)c([N+](=O)[O-])c1, the Potency is reported as “inactive”. In the case of CCOP(=O)(NC(=NC(C)c1ccccc1)NC(C)c1ccccc1)OCC (configuration not stated), the Potency is reported as “inactive”. With O=P1(Nc2ccccn2)COc2ccccc2OC1 the Potency was “inactive”. For O=C(O)C(O)c1ccc(N(CCCl)CCCl)cc1.c1ccncc1 (configuration not stated), the Potency was “inactive”. For O=[As](O)(c1cccs1)c1cccs1, the Potency was “inactive”. With Cc1ccc(OCC(=O)OC2CN3CCC2CC3)cc1 (configuration not stated) the Potency was “inactive”. In the case of NS(=O)(=O)c1cccc(NC(=O)COC(=O)C(O)(c2ccccc2)c2ccccc2)c1, the Potency is reported as “inactive”. In the case of O=P1(Nc2ccc(Br)cn2)COc2ccccc2OC1, the Potency is reported as “inactive”. With Nc1cccc([As](=O)(O)c2ccccc2)c1 the Potency was “inactive”. For CN1CCCCC1COC(=O)C1(O)c2ccccc2CCc2ccccc21 (configuration not stated), the Potency was “inactive”. With O=P1(Nc2ncccn2)COc2ccccc2OC1 the Potency was “inactive”. In the case of CCCC1OP(=O)(Nc2ccccc2)OCC1CC (configuration not stated), the Potency is reported as “inactive”. In the case of O=C(/C=C/c1ccccc1)OC1CN2CCC1CC2 (configuration not stated), the Potency is reported as “inactive”. In the case of CC1=C2N=C(C=C3N=C(C(C)=C4[N-][C@@](C)([C@@H]5N=C1[C@](C)(CCC(=O)NC[C@@H](C)OP(=O)([O-])O[C@H]1[C@@H](O)[C@@H](n6cnc7cc(C)c(C)cc76)O[C@@H]1CO)[C@H]5CC(N)=O)[C@@](C)(CC(N)=O)[C@@H]4CCC(N)=O)[C@@](C)(CC(N)=O)[C@@H]3CCC(N)=O)C(C)(C)[C@@H]2CCC(N)=O.[C-]#N.[Co+3], the Potency is reported as active: 35.5 µM. In the case of CN(C)C1(CNC(=O)c2ccc(S(C)(=O)=O)cc2)CCCCC1, the Potency is reported as “inactive”. In the case of COc1cc(C2NCCC3(OCCO3)C2(C)C)cc(OC)c1OC.O=[N+]([O-])c1cc([N+](=O)[O-])c(O)c([N+](=O)[O-])c1 (configuration not stated), the Potency is reported as “inactive”. With Cc1ccc(C(=O)OC2CN3CCC2CC3)cc1 (configuration not stated) the Potency was “inactive”. With Cc1cc(SC(NC=O)C(Cl)(Cl)Cl)ncn1 (configuration not stated) the Potency was “inactive”. In the case of O=P(Nc1ccccn1)(c1cccc2ccccc12)c1cccc2ccccc12, the Potency is reported as “inactive”. For CCOC(=O)Nc1cccc([As](=O)(O)O)c1, the Potency was “inactive”. With Cc1cc(SC(NC(=O)c2ccccc2)C(Cl)(Cl)Cl)nc(C(C)C)n1 (configuration not stated) the Potency was “inactive”. In the case of CCCCOc1ccc(C(=O)NCC2(N3CCCCC3)CCCCC2)cc1OC, the Potency is reported as “inactive”. In the case of COP(=O)(OC)N1CC1c1ccccc1 (configuration not stated), the Potency is reported as “inactive”. For CC1CCNP(=O)(N(CCCl)CCCl)O1 (configuration not stated), the Potency was “inactive”. In the case of O=C(O)C(=O)c1ccc(N(CCCl)CCCl)cc1.c1ccc(Nc2ccccc2)cc1, the Potency is reported as “inactive”. For CCOC(=O)Nc1ccc([As](=O)(O)O)c(O)c1, the Potency was “inactive”. In the case of CCOC(=O)c1ccc(NC(=O)C(C)(CCl)SC)cc1 (configuration not stated), the Potency is reported as “inactive”. With O=C(OC1CN2CCC1CC2)c1cccc([N+](=O)[O-])c1 (configuration not stated) the Potency was “inactive”. With O=C(COc1ccccc1)OC1CN2CCC1CC2 (configuration not stated) the Potency was “inactive”. In the case of COC(=O)C1(C)COP(=O)(N2CCCC2)OC1 (configuration not stated), the Potency is reported as “inactive”. With COc1ccc(N/C(=N/P(=O)(N2CCOCC2)N2CCOCC2)N2CCOCC2)cc1 the Potency was “inactive”. With O=[N+]([O-])c1cc(Oc2ccc([N+](=O)[O-])cc2C(F)(F)F)cc([N+](=O)[O-])c1 the Potency was “inactive”. In the case of COc1cc(I)ccc1[As](=O)(O)O, the Potency is reported as “inactive”. In the case of COc1ccc2nc(NP(=O)(c3ccccc3)c3ccccc3)sc2c1, the Potency is reported as “inactive”. For O=P1(N(CCCl)CCCl)Nc2ccccc2N1, the Potency was “inactive”. With O=P1(N(CCCl)CCCl)OCCCN1CCCl (configuration not stated) the Potency was “inactive”. For CCN(CC)CCCOC(=O)C(O)(c1ccccc1)c1ccccc1, the Potency was “inactive”. In the case of Cc1cc(=O)[nH]c(N[N+](=O)[O-])n1, the Potency is reported as “inactive”. With O=C(OC1CN2CCC1CC2)C12CC3CC(CC(C3)C1)C2 (configuration not stated) the Potency was “inactive”. In the case of Cc1c2c(nc3ccccc13)SC(C(Cl)Cl)C2 (configuration not stated), the Potency is reported as “inactive”. With O=[N+]([O-])c1cc([N+](=O)[O-])c(-c2ccn[nH]2)s1 the Potency was “inactive”. In the case of CC(C)NC(=O)NP(=O)(Oc1ccccc1)Oc1ccccc1, the Potency is reported as “inactive”. For O=C(OC1CN2CCC1CC2)c1cccc2[nH]cnc12 (configuration not stated), the Potency was “inactive”. With CCN(CC)C(=S)SC(NC=O)C(Cl)(Cl)Cl (configuration not stated) the Potency was “inactive”. In the case of COC(=O)C1(C)COP(=O)(N2CCCCCC2)OC1 (configuration not stated), the Potency is reported as “inactive”. In the case of CC(C)c1ccc(OP(=O)(Nc2ccccn2)Oc2ccccc2F)cc1 (configuration not stated), the Potency is reported as “inactive”. For ClCCSc1nnc(-c2cccnc2)o1, the Potency was “inactive”. With Cc1ccc2nc3c(c(C)c2c1)CC(C(Cl)Cl)S3 (configuration not stated) the Potency was “inactive”. With Cc1ccc(OP(=O)(Nc2ccc([N+](=O)[O-])cn2)Oc2ccc(C)cc2)cc1 the Potency was “inactive”. For [N-]=[N+]=NC1CCCCC1NC(=O)c1cc([N+](=O)[O-])cc([N+](=O)[O-])c1 (configuration not stated), the Potency was “inactive”. In the case of O=[N+]([O-])c1ccc(-c2cc([N+](=O)[O-])c(O)c([N+](=O)[O-])c2)cc1, the Potency is reported as “inactive”. For COc1cc(C(=O)NCC2(N3CCOCC3)CCCCC2)ccc1OCC(C)C, the Potency was “inactive”. In the case of O=[As](O)(c1ccc(O)cc1)c1ccccc1O, the Potency is reported as “inactive”. In the case of C[As](=O)(O)c1cccc(C(=O)O)c1, the Potency is reported as “inactive”. For O=[N+]([O-])c1cc([N+](=O)[O-])c(Nc2cccnc2)c([N+](=O)[O-])c1, the Potency was active: 35.5 µM.
